Assay results taken from patent US20210363204A1.

B1: NV1G1969 (peptide)
peptide: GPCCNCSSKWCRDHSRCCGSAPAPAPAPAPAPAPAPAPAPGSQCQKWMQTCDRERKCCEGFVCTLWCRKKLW
modifications: not checked
B2: NV1G1952 (peptide)
peptide: GPRRRRRRRRRRRAPAPAPAPAPQCQKWMQTCDRERKCCEGFVCTLWCRKKLW
modifications: not checked

Biological target: human Nav1.4 (human), P35499
Assay: cell-based or functional assay
Settings: not given

Binder	Nav1.4 IC50, QPatch [nM]
GPYCQKWMQTCDSERKCCEGMVCRLWCKKKLW (modifications not checked) [63930841]	543
YCQKWMQTCDAERKCCEGFSCRLWCKKKLL (modifications not checked) [64087946]	2590
YCQKWMQTCDSERKCCEGMVCRLWCKKKLW (modifications not checked) [64087907]	1460
GPYCQKWMWTCDSERKCCEGMVCRLWCKKKLY (modifications not checked) [NV1G2319]	1700

Biological target: human Nav1.5 (human), Q14524
Assay: cell-based or functional assay
Settings: not given

Binder	hNav1.5 QPatch IC50 [nM]
GPQCQKWMQTCDAERKCCEGFVCRLWCKKKLW (modifications not checked) [Protoxin-II variant NV1D2775]	> 3000
GPACQKWMQTCDAERKCCEGFVCRLWCKKKLW (modifications not checked) [Protoxin-II variant NV1D2774]	> 3000

Biological target: human Nav1.7 (human), Q15858
Assay: cell-based or functional assay
Settings: not given

Binder	hNav1.7 QPatch % blk at 10 nM [%]	hNav1.7 TETRA IC50 [nM]	hNav1.7 QPatch IC50 [nM]	Nav1.7 IC50, FLIPR Tetra membrane depolarization [nM]	hNav1.7 QPatch % blk at 30 nM [%]
YCQKWMQTCDSERFCCEGMVCRLWCKKKLL (modifications not checked) [64053340]	26.8	–	–	–	–
GPYCQKWMYTCDSERKCCEGMVCRLWCKKKLW (modifications not checked) [NV1G2156]	–	90.5	–	–	–
GPYCQKWMQTCDSERKCCEGMVCRLWCKKKLW (modifications not checked) [63930841]	–	–	20.9	–	–
GPYCQKWMQTCDIERKCCEGMVCRLWCKKKLL (modifications not checked) [64053223]	33	–	–	–	–
GPYCQKWMETCDSERKCCEGMVCRLWCKKKLW (modifications not checked) [NV1G2082]	–	90.8	–	–	–
GPYCQKWMQTCDAERKCCEGFSCTLWCKKKLW (modifications not checked) [NV1G1862]	–	–	–	100	–
B1	–	–	–	100	–
GPQRFVTGHFGGLYPANGQCQKWMQTCDRERKCCEGFVCTLWCRKKLW (modifications not checked) [NV1G1980]	–	–	–	101	–
YCQKWMQTCDAERKCCEGFSCRLWCKKKLL (modifications not checked) [64087946]	20.7	–	–	–	–
YCQKWMQTCDSERKCCEGMVCRLWCKKKLW (modifications not checked) [64087907]	45.1	–	7.1	–	–
GPYCQKWMWTCDSERKCCEGMVCRLWCKKKLG (modifications not checked) [NV1G2329]	–	38	–	–	–
GPYCQKWMWTCDSERKCCEGMVCRLWCKKKLV (modifications not checked) [NV1G2291]	–	63.3	–	–	–
GPYCQKWMQTCDSERFCCEGMVCRLWCKKKLL (modifications not checked) [64053236]	28	–	–	–	–
GPYCQKWMQTCDSERKCCNGMVCRLWCKKKLL (modifications not checked) [64053210]	41.7	–	–	–	–
GPYCQKWMWTCDSERKCCEGMVCRLWCKKKLI (modifications not checked) [NV1G2129]	-6.5	–	–	–	–
GPYCQKWMWTCDSERKCCLGMVCRLWCKKKLW (modifications not checked) [NV1G1996]	76.9	–	0.5	–	–
GPYCQKWMWTCDSERKCCYGMVCRLWCKKKLW (modifications not checked) [NV1G2324]	57.5	–	–	–	–
GPYCQKWMWTCDSERKCCIGMVCRLWCKKKLW (modifications not checked) [NV1G2094]	–	–	–	–	63.2
GPRRRRRRRRRRRQCQKWMQTCDRERKCCEGFVCTLWCRKKLW (modifications not checked) [NV1G1981]	–	–	–	102	–
B2	–	–	–	139	–
GPSPGARAFAPAPAPAPAPQCQKWMQTCDRERKCCEGFVCTLWCRKKLW (modifications not checked) [NV1G1956]	–	–	–	88.1	–
GPQCQKWMQTCDRERKCCEGFVCTLWCRKKLWAPAPAPAPAP (modifications not checked) [NV1G1699]	–	–	–	169	–
GPQCQKWMQTCDRERKCCEGFVCTLWCRKKLWAPAPAPAPAPDGPWRKM (modifications not checked) [NV1G1693]	–	–	–	116	–
GPQCQDWMQTCDRERKCCEGFVCTLWCRKKLW (modifications not checked) [NV1G1778]	–	–	–	109	–
GPQCQKWMQTCDEERKCCEGFVCTLWCRKKLW (modifications not checked) [NV1G1922]	–	–	–	108	–
GPQCQKWMQTCKRKEKCCEGFVCTLWCRKKLW (modifications not checked) [NV1G1844]	–	–	–	180	–
GPQCQKWMQTCDRERKCCEGFVCTLWCRKSLW (modifications not checked) [NV1G1850]	–	–	–	102	–
GPQCQKWMQTCDRERKCCERFVCTLWCRKKLW (modifications not checked) [NV1G1851]	–	–	–	108	–
GPQCQEWMQTCDRERKCCRGFVCTLWCRKKLW (modifications not checked) [NV1G1843]	–	–	–	95.9	–

Biological target: human Nav1.6, Q9UQD0
Assay: QPatch
Settings: chains peptide; modification not given

Binder	IC50 [nM]
GPRCQKWMQTCDAERKCCEGFVCRLWCKKKLW [NV1D2772]	242
GPQCQKWMQTCDAERKCCEGFVCRLWCKKKLW [NV1D2775-NH2]	61.4
GPQCQKWMQTCDAERKCCEGFVCRLWCKKKLW [NV1D2775]	236
GPYCQKWMQTCDANRKCCEGFSCRLWCKKKLW [NV1D3586-NH2]	98.5
GPSCQKWMQTCDAERKCCEGFVCRLWCKKKLW [NV1D2773]	197
GPQCQKWMQTCDAERKCCEGFSCTLWCKKKLW [NV1D2974-NH2]	219
GPQCQKWMQTCDAERKCCEGFSCTLWCKKKLW [NV1D2974]	618
GPQCQKWMQTCDARRKCCEGFVCRLWCKKKLW [NV1D3006]	124
GPYCQKWMQTCDANRKCCEGFSCRLWCKKKLW [NV1D3586]	895
QCQKWMQTCDAERKCCEGFSCTLWCKKKLW [(-GP) N-Ac-NV1D2974-NH2]	476
QCQKWMQTCDRERKCCEGFVCTLWCRKKLW [(-GP) N-Ac-NV1D3034-NH2]	165
GPACQKWMQTCDRNRKCCEGFVCTLWCRKKLW [NV1D3541]	1750
GPQCQKWMQTCDRTRKCCEGFVCTLWCRKKLW [NV1D3368]	1470
GPQCQKWMQTCDRERKCCEGFVCTLWCRKKLW [NV1D3034-NH-methyl]	563
GPQCQKWMQTCDRNRKCCEGFVCTLWCRKKLW [NV1D3044]	308
GPQCQKWMQTCDRERKCCEGFVCTLWCRKKLW [NV1D3034]	569
GPQCQKWMQTCDRERKCCEGFVCTLWCRKKLW [NV1D3034-NH-butyl]	502
GPQCQKWMQTCDRERKCCQGFVCTLWCRKKLW [NV1D3388]	1200
GPQCQKWMQTCDRTRKCCEGFVCTLWCRKKLW [NV1D3368-NH2]	862
GPQCQKWMQSCDRERKCCEGFVCTLWCRKKLW [NV1D3359]	486
GPACQKWMQTCDANRKCCEGFSCRLWCKKKLW [NV1D3587]	434
GPQCQKWMQTCDRERKCCEGFVCTLWCRKKLW [NV1D3034-NH2]	160

Biological target: human Nav1.7, Q15858
Assay: QPatch
Settings: chains peptide; modification not given

Binder	IC50 [nM]
GPYCQKWMQTCDANRKCCEGFSCRLWCKKKLW [NV1D3586-NH2]	1.5
GPQCQKWMQTCDAERKCCEGFSCTLWCKKKLW [NV1D2974]	7
GPQCQKWMQTCDARRKCCEGFVCRLWCKKKLW [NV1D3006]	3.3
QCQKWMQTCDRERKCCEGFVCTLWCRKKLW [(-GP) N-Ac-NV1D3034-NH2]	2.5
GPACQKWMQTCDRNRKCCEGFVCTLWCRKKLW [NV1D3541]	26.9
GPQCQKWMQTCDRTRKCCEGFVCTLWCRKKLW [NV1D3368]	5.7
GPQCQKWMQTCDRNRKCCEGFVCTLWCRKKLW [NV1D3044]	4.6
GPACQKWMQTCDANRKCCEGFSCRLWCKKKLW [NV1D3587]	12.7
